Pooled drug test results. Numbers come from NIAID ChemDB, via PubChem.

Common to all: growth or infection tests

Blank or dashed fields: not listed here. Rows are shuffled and stem from different studies. Inhibition is in % at the dose shown (toxicity tests: loss of growth or viability). ECn: concentration that inhibits the pathogen or its effect by n%. A number after MIC or MFC names an inhibition level or a share of isolates.

compound | method | endpoint | dose | cell line | agent | strain | value
O=c1[nH]c(=O)n([C@@H]2O[C@H](CO)[C@@H](O)[C@@H]2O)cc1/C=C/Cl | plaque count | inhibition | 0.0001 µg/mL | HELF | Varicella zoster virus | Kawaguchi | 15%
Oc1ccccc1N=Cc1cccc(O)c1O | broth dilution | MIC |  |  | Cryptococcus neoformans | 28JF | 4 µg/mL
CCC(CC)O[C@@H]1C=C(C(=O)O)C[C@H](N)[C@H]1NC(C)=O | plaque count | EC50 |  | MDCK | Influenza B virus | Isolate C29C | 0.045 µg/mL
CCC(CC)O[C@@H]1C=C(C(=O)O)C[C@H](N)[C@H]1NC(C)=O | visual reading | EC50 |  | MDCK | Influenza A virus | Influenza A/Shandong/09/93 (H3N2) | 0.04 µM
Nc1nc2c(ncn2COC(CO)CO)c(=O)[nH]1 | plaque count | EC90 |  |  | Human cytomegalovirus | VR4991 (ganciclovir-resistant) | 92.5 µM
O=S(=O)(O)c1cc(O)c2c(O)c(N=Nc3ccccc3)c(S(=O)(=O)O)cc2c1 | cytopathic effect | inhibition | 50 µg/mL | Human amnion AV3 cells | Herpes simplex virus |  | 43%
CCOC(=O)/C=C/[C@H](C[C@@H]1CCNC1=O)NC(=O)[C@@H](CC(=O)[C@@H](NC(=O)c1cc(C)on1)C(C)C)Cc1ccc(F)cc1 | cytopathic effect / visual reading | EC50 |  | OHIO HELA-I | Rhinovirus | Isolate 12 | <0.01 µg/mL
O=S(=O)([O-])c1ccc2c(O)cc(S(=O)(=O)[O-])cc2c1 | cytopathic effect | inhibition | 5 µg/mL | Human embryonic lung cells | Rhinovirus |  | 10%
CN[C@H]1CC[C@@H](c2ccc(Cl)c(Cl)c2)c2ccccc21 | broth dilution | MFC |  |  | Cryptococcus neoformans | JEC21 | 6 µg/mL
O=S(=O)([O-])c1ccc(O)cc1 | cytopathic effect | inhibition | 50 µg/mL | Human amnion AV3 cells | Herpes simplex virus |  | 20%
CCOC(=O)c1c(C)nc(NCCCCNc2ccnc3cc(Cl)ccc23)nc1-c1ccccc1[N+](=O)[O-] |  | MIC99 |  |  | Cryptococcus gattii | 196L/03 | 8 µg/mL
CO[C@H]1/C=C/O[C@@]2(C)Oc3c(C)c(O)c4c(O)c(c5c(c4c3C2=O)NC2(CCN(CC(C)C)CC2)N=5)=NC(=O)/C(C)=C\C=C\[C@H](C)[C@H](O)[C@@H](C)[C@@H](O)[C@@H](C)[C@H](OC(C)=O)[C@@H]1C |  | MIC |  |  | Mycobacterium avium intracellulare | 141 | 1 µg/mL
O=c1[nH]c(=O)n([C@H]2C[C@H](O)[C@@H](CO)O2)cc1/C=C/Br | plaque count | inhibition | 0.01 µg/mL | HELF | Varicella zoster virus | KANNO | 70%
O=S(=O)([O-])c1ccc(O)c2ccccc12 | cytopathic effect | inhibition | 50 µg/mL | Human amnion AV3 cells | Rhinovirus |  | 15%
CCc1cn([C@@H]2O[C@H](CO)[C@@H](O)[C@@H]2O)c(=O)[nH]c1=O | plaque count | inhibition | 10 µg/mL | HELF | Varicella zoster virus | KANNO | 0%
CCOC(=O)c1ccc(OCCC2CCN(c3ccc(C)nn3)CC2)cc1 | neutral red | EC50 |  | KB | Rhinovirus | 56822 (ICAM-1 receptor group 42) | 0.041 µM
CCOC(=O)c1c(C)nc(NCCCNc2ccnc3cc(Cl)ccc23)nc1-c1ccccc1 |  | MIC99 |  |  | Cryptococcus gattii | LMM 818 | 11.3 µg/mL
Cc1cn([C@@H]2O[C@H](CO)[C@@H](O)[C@@H]2O)c(=O)[nH]c1=O | plaque count | inhibition | 0.01 µg/mL | HELF | Varicella zoster virus | OKA | 0%
C=C/C(C)=C/[C@@]1(C)SC(=O)C(C)=C1O |  | MIC |  |  | Escherichia coli | UB1005/PJTB3 | >600 µM
Nc1ccc2c(O)cc(S(=O)(=O)[O-])cc2c1S(=O)(=O)[O-] | cytopathic effect | inhibition | 5 µg/mL | Human embryonic lung cells | Adenovirus | TYPE 3 | 30%
C=CCc1ccc(O)c(OC)c1 | turbidity | MIC90 |  |  | Candida tropicalis | 2768 | 500 µg/mL
Cc1cc(-c2ccc(N=Nc3c(N)c(S(=O)(=O)O)cc4cc(S(=O)(=O)O)ccc34)c(C)c2)ccc1N=Nc1c(N)ccc2cc(S(=O)(=O)O)ccc12 | cytopathic effect | inhibition | 50 µg/mL | Human embryonic lung cells | Adenovirus | TYPE 3 | 20%
Oc1ccccc1N=Cc1ccc(O)c(O)c1O |  | MIC99 |  |  | Cryptococcus neoformans | 96806 | 11.3 µg/mL
Nc1c(S(=O)(=O)O)cc2cc(S(=O)(=O)O)cc(O)c2c1O | cytopathic effect | inhibition | 50 µg/mL | Human conjunctiva cells | Herpes simplex virus |  | 30%
Nc1nc(=O)n([C@@H]2O[C@H](CO)[C@@H](O)[C@@H]2F)cc1I | plaque count | inhibition | 0.1 µg/mL | HELF | Varicella zoster virus | YS | 86%

The first 2 rows once more:

{"compound": "O=c1[nH]c(=O)n([C@@H]2O[C@H](CO)[C@@H](O)[C@@H]2O)cc1/C=C/Cl", "method": "plaque count", "endpoint": "inhibition", "dose": "0.0001 µg/mL", "cell line": "HELF", "agent": "Varicella zoster virus", "strain": "Kawaguchi", "value": "15%"}
{"compound": "Oc1ccccc1N=Cc1cccc(O)c1O", "method": "broth dilution", "endpoint": "MIC", "agent": "Cryptococcus neoformans", "strain": "28JF", "value": "4 µg/mL"}